These results are taken from PubChem BioAssay AID559 (PCMD, 2006).

Protein sequences, listed by entry. Tags and fused reporters are not part of them.
UniProt P0A8V2, whole entry, looked up: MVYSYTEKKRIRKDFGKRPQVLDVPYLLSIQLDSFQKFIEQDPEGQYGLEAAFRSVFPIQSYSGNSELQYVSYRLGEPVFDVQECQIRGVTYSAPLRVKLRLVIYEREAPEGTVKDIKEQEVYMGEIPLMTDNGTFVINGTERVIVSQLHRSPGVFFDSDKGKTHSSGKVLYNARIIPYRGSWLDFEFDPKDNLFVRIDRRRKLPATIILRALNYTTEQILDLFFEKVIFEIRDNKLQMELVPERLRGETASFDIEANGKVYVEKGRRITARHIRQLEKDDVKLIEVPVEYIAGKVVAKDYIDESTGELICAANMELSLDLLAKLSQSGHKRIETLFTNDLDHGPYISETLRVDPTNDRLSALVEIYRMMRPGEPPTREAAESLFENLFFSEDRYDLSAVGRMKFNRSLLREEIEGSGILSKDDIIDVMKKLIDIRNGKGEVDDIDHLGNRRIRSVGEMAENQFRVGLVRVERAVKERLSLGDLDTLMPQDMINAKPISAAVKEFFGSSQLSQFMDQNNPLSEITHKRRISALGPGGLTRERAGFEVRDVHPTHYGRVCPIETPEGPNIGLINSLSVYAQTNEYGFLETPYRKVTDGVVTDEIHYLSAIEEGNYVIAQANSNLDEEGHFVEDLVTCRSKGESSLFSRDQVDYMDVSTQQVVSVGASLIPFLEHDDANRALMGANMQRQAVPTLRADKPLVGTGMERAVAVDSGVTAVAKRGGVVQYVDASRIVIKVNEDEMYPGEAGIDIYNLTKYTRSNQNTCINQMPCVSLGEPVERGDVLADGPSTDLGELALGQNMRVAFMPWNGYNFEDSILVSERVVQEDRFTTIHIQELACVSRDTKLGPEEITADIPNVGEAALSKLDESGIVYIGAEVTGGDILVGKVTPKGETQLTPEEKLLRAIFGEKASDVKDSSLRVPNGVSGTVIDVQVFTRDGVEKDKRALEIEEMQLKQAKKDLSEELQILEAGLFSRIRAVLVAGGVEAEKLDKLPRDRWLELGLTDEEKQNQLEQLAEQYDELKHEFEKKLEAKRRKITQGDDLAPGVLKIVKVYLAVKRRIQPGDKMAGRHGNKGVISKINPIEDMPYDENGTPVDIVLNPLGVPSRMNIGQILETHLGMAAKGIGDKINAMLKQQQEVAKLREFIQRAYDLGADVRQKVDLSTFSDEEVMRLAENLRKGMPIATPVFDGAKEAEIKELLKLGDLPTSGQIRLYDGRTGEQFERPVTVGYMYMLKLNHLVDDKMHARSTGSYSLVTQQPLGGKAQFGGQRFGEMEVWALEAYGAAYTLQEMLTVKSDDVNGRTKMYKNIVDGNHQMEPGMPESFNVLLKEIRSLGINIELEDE

Only a part is listed here, and it is no random draw. The source made the active and inactive calls. No stated cut-off is given here; in the data, active means inhibition above about 20%; inactive means the rest.

The target of this test is DNA-directed RNA polymerase subunit beta (Escherichia coli (strain K12)) (UniProt P0A8V2). Briefly: bacterial RNA polymerase transcription inhibition – biochemical (AID 559).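 Further: 0% = enzyme without compound and 100% = no enzyme blank.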 To be noted: E. coli RNA polymerase, fluorescence transcription assay; hits give high values;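 tested at 10 µM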.
On to `O=P1(Nc2ccccn2)COc2ccccc2OC1`, for which the inhibition is inactive: 12.1%.

On to `Clc1n[nH]nc1-c1nn[nH][15n]1`, for which the inhibition was inactive: 2%. To `Cc1nn(-c2ccccc2)c2c1P(=O)(N1CCOCC1)N(C)C(c1ccccc1)=N2` (centres undefined) belongs inactive: 1.95%. `O=P1(Nc2ncccn2)COc2ccccc2OC1`: the inhibition is inactive: 11.7%. With `O=P1(Nc2ccc(Br)cn2)COc2ccccc2OC1`, the inhibition is inactive: -5.19%. Regarding `Cc1ccc(OCC(=O)OC2CN3CCC2CC3)cc1` (centres undefined), the inhibition was inactive: 9.11%. For the compound `CCOP1(=S)c2c(C)nn(CCC#N)c2N=C(c2ccccc2F)N1C` (centres undefined), the inhibition was inactive: 4.48%.

Consider `O=P(Nc1nccs1)(c1ccccc1)c1nc2ccccc2s1` (centres undefined), for which the inhibition was inactive: 7.56%.

For the compound `CCOP1(=S)c2c(C)nn(CCC#N)c2N=C(c2ccc(F)cc2)N1C` (centres undefined), the inhibition was inactive: 5.67%. To `Cc1cccc(OCC(=O)OC2CN3CCC2CC3)c1` (centres undefined) belongs inactive: 11.7%.

Regarding `O=C(OC1CN2CCC1CC2)C12CC3CC(CC(C3)C1)C2` (centres undefined), the inhibition is inactive: -3.97%. The same measure for `COP1(=S)c2c(C)nn(CCC#N)c2N=C(c2ccc(F)cc2)N1C` (centres undefined): inactive: 1.11%. To `O=C(COc1ccccc1)OC1CN2CCC1CC2` (centres undefined) belongs inactive: 6.51%. As to `CCc1nc2c(n1)c1c(non1O)c1c2no[n+]1[O-]`, the inhibition is inactive: 4.52%. The same measure for `O=P1(Nc2nc3ccc(Cl)cc3s2)COc2ccccc2O1` (centres undefined): inactive: 4.82%; for `COC(=O)c1cc2c(s1)N=C(c1ccccc1)N(C)P2(=O)N1CCOCC1` (centres undefined): inactive: 3.25%; for `O=C(OC1CN2CCC1CC2)c1cccc(Cl)c1` (centres undefined): inactive: -3.75%.

As for `O=P(Nc1nccs1)(c1ccccc1)c1ccccc1`, the inhibition is inactive: 8.97%. With `c1nnnn1CCn1cnnn1`, the inhibition was inactive: 2.34%.
